This passage reports IC50 results from patent US9353152B2, “Induction of the mitochondrial permeability transition” (NewSouth Innovations Pty Limited, priority 2002, dated 2016).

pIC50: −log10 of the molar value. Where two headings read alike, the source gives them in different places.

The test system of the experiment is BAE cells. Nature of the experiment: Cell viability assay, attached cells (methylene blue), proliferating or growth-quiescent cells. Type of experiment: cell-based, bovine. As to conditions: 48 h.

As to phenyl arsenoxide, the pIC50 (read-out: IC50 (toxicity), growth-quiescent BAE cells, 0.25% serum) is 6.70 and the pIC50 (read-out: IC50 (toxicity), proliferating BAE cells, 10% serum) is 6.70.
